Holding throughout (experiment): purified protein
Common to all, as to conditions: pH 8.0; 25.0 °C

The test system of data set [1] is NC[C@@H]1O[C@H](O[C@H]2[C@@H](O)[C@H](O[C@@H]3[C@@H](O)[C@H](N)C[C@H](N)[C@H]3O[C@H]3O[C@H](CO)[C@@H](O)[C@H](O)[C@H]3N)O[C@@H]2CO)[C@H](N)[C@@H](O)[C@@H]1O.
Data set [2] relates to NCC[C@H](O)C(=O)N[C@@H]1C[C@H](N)[C@@H](O[C@H]2O[C@H](CN)[C@@H](O)[C@H](O)[C@H]2O)[C@H](O)[C@H]1O[C@H]1O[C@H](CO)[C@@H](O)[C@H](N)[C@H]1O.
The subject of data set [3] is CN[C@@H]1[C@@H](O)[C@@H](O[C@@H]2[C@@H](O)[C@H](O[C@H]3OC(CN)=CC[C@H]3N)[C@@H](N)C[C@H]2N)OC[C@]1(C)O.
Data set [4] concerns NC[C@H]1O[C@H](O[C@H]2[C@H](O)[C@@H](O[C@H]3O[C@H](CO)[C@@H](O)[C@H](N)[C@H]3O)[C@H](N)C[C@@H]2N)[C@H](O)[C@@H](O)[C@@H]1O.
Data set [5] has as its system CC(=O)SCCNC(=O)CCNC(=O)[C@H](O)C(C)(C)COP(=O)(O)OP(=O)(O)OC[C@H]1O[C@@H](n2cnc3c(N)ncnc32)[C@H](O)[C@@H]1OP(=O)(O)O.
In data set [6] the test system is NC[C@@H]1O[C@H](O[C@H]2[C@@H](O)[C@H](O[C@@H]3[C@@H](O)[C@H](N)C[C@H](N)[C@H]3O[C@H]3O[C@H](CN)[C@@H](O)[C@H](O)[C@H]3N)O[C@@H]2CO)[C@H](N)[C@@H](O)[C@@H]1O.

The term Km denotes the substrate concentration at which the rate is half of its maximum. As usually defined, the kcat/Km is the second-order rate constant that governs catalysis at low substrate concentration.

Consider “Eis_Ban (Bacillus anthracis str. Sterne)”, for which the Km was 44 ± 11 µM in data set [1]; 1070 ± 470 µM in data set [2]; 76 ± 31 µM in data set [3]; 57 ± 9 µM in data set [4]; 32 ± 8 µM in data set [5]; 469 ± 70 µM in data set [6]. Further, the specificity constant (kcat/Km) in data set [1] came out at 430 M⁻¹ s⁻¹; in data set [2], 92 M⁻¹ s⁻¹; in data set [3], 225 M⁻¹ s⁻¹; in data set [4], 2370 M⁻¹ s⁻¹; in data set [5], 6700 M⁻¹ s⁻¹; in data set [6], 397 M⁻¹ s⁻¹.

These data come from publication PMC4671295.
